Pooled drug test results. Numbers come from NIAID ChemDB, via PubChem.

All rows: whole-cell or culture tests; species: Aspergillus flavus; read by: agar diffusion; endpoint: zone

An empty or dashed field is not shown. Zone: diameter of growth inhibition. Rows are shuffled and stem from different studies.

compound | tested at | strain or isolate | result
Clc1cccc(NCc2cc3ccccc3nc2Cl)c1 | 200 µg/mL | MTCC 277 | 11.63 mm
Clc1ccc(COC(Cn2ccnc2)c2ccc(Cl)cc2Cl)c(Cl)c1 | 30 µg/mL |  | 23 mm
Cc1ccc2c(c1)C(C1SCC(=O)N1NC(=O)N1c3ccccc3C=Cc3ccccc31)C(c1ccccc1)=N2 | 750 µg/mL | MTCC-1973 | 2 mm
C[C@H]1[C@H](O)[C@@H](C)/C=C/C=C/C=C/C=C/C=C/C=C/C=C/[C@H](O[C@@H]2O[C@H](C)[C@@H](O)[C@H](N)[C@@H]2O)C[C@@H]2O[C@](O)(C[C@@H](O)C[C@@H](O)CC[C@H](O)[C@@H](O)C[C@@H](O)CC(=O)O[C@H]1C)C[C@H](O)[C@H]2C(=O)O | 1 mg/mL | ATCC 28542 | 18 mm
O=C(NN1C(=O)CSC1C1C(c2ccccc2)=Nc2ccccc21)N1c2ccccc2C=Cc2ccccc21 | 1000 µg/mL | MTCC-1973 | 3 mm
Cc1ccc(/C=C2\SC(c3ccc(C)cc3)N(NC(=O)CNC(=O)c3ccncc3)C2=O)cc1 | 100 µg/mL |  | 10.6 mm
Cc1c(N2C(=O)CSC23C(=O)N(CCCCCCBr)c2ccc(F)cc23)c(=O)n(-c2ccccc2)n1C | 100 µg/mL | MTCC 277 | 14 mm
CN1C(=O)/C(=c2/[nH][nH]c(=O)/c2=C\c2ccc(N)cc2)C(=O)c2ccccc21 | 1 mg/mL | ATCC 28542 | 0 mm
COc1c(N2CC3CCCNC3C2)c(F)cc2c(=O)c(C(=O)[O-])cn(C3CC3)c12.[Cl][Co+].c1c[nH]cn1 | 100 µM |  | 0 mm
Cn1c(=O)c(-c2[nH][nH]c(=O)c2/C=N/c2ccccn2)c(O)c2ccccc21 | 1 mg/mL | ATCC 28542 | 21 mm
O=C(CNC(=O)c1ccncc1)NN1C(=O)/C(=C/c2ccccc2Br)SC1c1ccccc1Br | 50 µg/mL |  | 12.5 mm
CN(Cc1cc2ccccc2nc1Cl)c1ccc(Cl)c(Cl)c1 | 200 µg/mL | MTCC 277 | 19.52 mm
O=C(CNC(=O)c1ccncc1)NN1C(=O)CSC1c1ccccc1Br | 50 µg/mL |  | 14 mm
CN1C(=O)/C(=c2/[nH][nH]c(=O)/c2=C\c2ccccn2)C(=O)c2ccccc21 | 1 mg/mL | ATCC 28542 | 8 mm
Nc1cc(=Nc2ccc(Br)cc2)n2nc(S(N)(=O)=O)sc2n1 | 5000 µg/mL |  | 3 mm
O=C(CNC(=O)c1ccncc1)NN1C(=O)CSC1c1ccccc1Cl | 50 µg/mL |  | 18 mm
Cc1nn(-c2ccccc2)c2c1C1(C(=O)N(CCCCCCN3C(=O)C4(SCC(=O)N4c4c(C)n(C)n(-c5ccccc5)c4=O)c4ccccc43)c3ccc(F)cc31)c1c(C)nn(-c3ccccc3)c1O2 | 100 µg/mL | MTCC 277 | 15 mm
COc1ccc(C2C(C#N)=C(N)N=C3Sc4cc(C)ccc4N32)cc1OC | 5000 µg/mL |  | 9 mm
Cc1ccc2c(c1)C1(SCC(=O)N1c1c(C)n(C)n(-c3ccccc3)c1=O)C(=O)N2CCCCCCBr | 100 µg/mL | MTCC 277 | 0 mm
CN(Cc1cc2ccccc2nc1Cl)c1ccc(Cl)cc1 | 200 µg/mL | MTCC 277 | 17.73 mm
Cc1ccsc1/C=N/NC(N)=O | 250 µg/mL |  | 0 mm
Clc1ccccc1NCc1cc2ccccc2nc1Cl | 200 µg/mL | MTCC 277 | 10.6 mm
Cc1cc(=O)oc2cc(OCCCCCCn3cc(CN4CCCCC4)nn3)ccc12 | 100 µg/mL | MTCC 277 | 14.7 mm
O=C(NN=CC1C(c2ccccc2)=Nc2ccccc21)N1c2ccccc2C=Cc2ccccc21 | 750 µg/mL | MTCC-1973 | 10 mm
O=C(CNC(=O)c1ccncc1)NN1C(=O)CSC1c1cccc([N+](=O)[O-])c1 | 100 µg/mL |  | 27.2 mm
Clc1nc2ccccc2cc1CNC1CCCCC1 | 200 µg/mL | MTCC 277 | 0 mm
CN1C(=O)/C(=c2/[nH][nH]c(=O)/c2=C\c2ccc(Cl)cc2)C(=O)c2ccccc21 | 1 mg/mL | ATCC 28542 | 7 mm
Cc1ccc2c(c1)C1(SCC(=O)N1c1c(C)n(C)n(-c3ccccc3)c1=O)C(=O)N2CCCCCCN1C(=O)C2(c3cc(F)ccc31)c1c(C)nn(-c3ccccc3)c1Oc1c2c(C)nn1-c1ccccc1 | 100 µg/mL | MTCC 277 | 12 mm

Repeating the final 2 entries:

compound,tested at,strain or isolate,result
CN1C(=O)/C(=c2/[nH][nH]c(=O)/c2=C\c2ccc(Cl)cc2)C(=O)c2ccccc21,1 mg/mL,ATCC 28542,7 mm
Cc1ccc2c(c1)C1(SCC(=O)N1c1c(C)n(C)n(-c3ccccc3)c1=O)C(=O)N2CCCCCCN1C(=O)C2(c3cc(F)ccc31)c1c(C)nn(-c3ccccc3)c1Oc1c2c(C)nn1-c1ccccc1,100 µg/mL,MTCC 277,12 mm